The record followed here is PubChem BioAssay AID504637 (National Center for Advancing Translational Sciences (NCATS), 2011).

By UniProt entry, the sequences of proteins in these tests, tags left out. Where a name states a change or a piece, a line headed by the entry shows the natural chain unless it says otherwise.
UniProt O15648: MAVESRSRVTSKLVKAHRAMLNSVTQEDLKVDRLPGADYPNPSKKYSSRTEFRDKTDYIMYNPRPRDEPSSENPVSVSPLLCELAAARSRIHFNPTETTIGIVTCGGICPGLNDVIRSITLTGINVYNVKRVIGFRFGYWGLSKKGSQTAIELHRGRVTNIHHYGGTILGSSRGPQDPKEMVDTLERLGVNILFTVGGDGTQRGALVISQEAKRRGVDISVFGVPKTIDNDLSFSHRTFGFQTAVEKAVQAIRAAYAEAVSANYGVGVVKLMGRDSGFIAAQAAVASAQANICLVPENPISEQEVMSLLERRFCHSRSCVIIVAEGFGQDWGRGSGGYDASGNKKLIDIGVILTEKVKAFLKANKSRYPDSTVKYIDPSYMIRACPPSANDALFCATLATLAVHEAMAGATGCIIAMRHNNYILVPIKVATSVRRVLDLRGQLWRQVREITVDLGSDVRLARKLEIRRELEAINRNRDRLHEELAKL

Molecules are shown by their SMILES. The list shows a part of the results, in another mix than the full data. Results filed as inconclusive are left out. Active and inactive are the calls of the source. Calls follow the shape of the dose curve; as a rule, active = well fitted inhibition curve with a large enough effect; inconclusive = small, poorly fitted or top-dose-only effect, or effect the other way; inactive = flat fitted curve, though single readings scatter.
Potency is read from the fitted curve at half-maximal effect.

The assay concerns the target ATP-dependent 6-phosphofructokinase (Trypanosoma brucei brucei) (UniProt O15648). As to the kind of experiment: Inhibitors of T. brucei phosphofructokinase: Hit Validation. Also: nearly all actives have a fitted effect of over 60% in size. The settings on record: purified T. brucei PFK, ADP-Glo luminescence, 45 min. From the text: NCGC Assay Overview: Various species of the protozoan family Trypanosomatidae are responsible for a range of serious human diseases in tropical and subtropical areas of the world. […] Many of the disorders caused by trypanosomatids are fatal if left untreated, but most currently used drugs are inefficient and toxic. […] Oxidative metabolism involving the mitochondrial tricarboxylic acid cycle and oxidative phosphorylation are repressed in these parasites, and recent RNA interference (RNAi) experiments have shown that even partial depletion of certain individual glycolytic enzymes can lead to the death of cultured parasites. […] A luminescence-based assay for T. brucei PFK activity has been developed which uses luciferase to detect production of ADP. […] To directly measure the ADP product of the PFK reaction, we used the ADP-Glo detection kit (Promega), which utilizes two separate reactions to 1) deplete all remaining uncatalyzed ATP and 2) convert all remaining ADP to ATP, which is then detected through a traditional luciferase-coupled reaction. […]
NCGC Assay Protocol Summary: Substrate buffer was dispensed into white, solid 1536-well plates at 3uL/well in 0.1M triethanolamine (TEA) buffer, pH 8.0, containing final concentrations of 5 mM MgCl2, 0.01% Tween20, 0.5 mM fructose-6-phosphate (F6P) and 0.1mM ATP. […] The %Activity was determined from the corrected luminescence values. […]
(In general: ADP-Glo first removes unused ATP, then detects ADP through luciferase.)
Take `O=P(Nc1nccs1)(c1ccccc1)c1nc2ccccc2s1` (stereo unspecified): the Potency is active: 19 µM.
